Laboratory results: patent publication US6514997B2, “Antipicornaviral compounds and compositions, their pharmaceutical uses, and materials for their synthesis” (Agouron Pharmaceuticals, Inc., priority 1999, dated 2003)

What was measured:
[1] = system: echovirus 9 (ECHO-9); test: Anti-echoviral cell culture assay (EC50), ECHO-9; format: cell-based
[2] = system: Coxsackievirus type B3 (CVB3); test: Anticoxsackieviral cell culture assay (XTT, EC50), CVB3; format: cell-based, coxsackievirus B3 in H1-HeLa cells
Method: (§1) Anticoxsackieviral Cell Culture Assay:
(§2) Coxsackievirus types A-21 (CAV-21) and B3 (CVB3) were purchased from American Type Culture Collection (ATCC, Rockville, Md.). Virus stocks were propagated and antiviral assays were performed in H1-HeLa cells (ATCC). Cells were grown in minimal essential medium with 10% fetal bovine serum (Life Technologies, Gaithersburg, Md.). The ability of the compounds of this invention to protect cells against either CAV-21 or CVB3 infection was measured by the XTT dye reduction method. This method is described in Weislow et al., J. Natl. Cancer Inst. (1989), vol. 81, 577-586. H1-HeLa cells were infected with CAV-21 or CVB3 at a multiplicity of infection (m.o.i.) of 0.025 or 0.075, respectively, or mock-infected with medium only. H1-HeLa cells were plated at 4×10^4 cells per well in a 96-well plate and incubated with appropriate concentrations of the test compound. One day (CVB3) or two days (CAV-21) later, XTT/PMS was added to test plates and the amount of formazan produced was quantified spectrophotometrically at 450/650 nm. The EC50 was calculated as the concentration of compound that increased the formazan production in compound-treated, virus-infected cells to 50% of that produced by compound-free, uninfected cells. The 50% cytotoxic dose (CC50) was calculated as the concentration of compound that decreased formazan production in compound-treated, uninfected cells to 50% of that produced in compound-free, uninfected cells. The therapeutic index (TI) was calculated by dividing the CC50 by the EC50.

[3] = system: Echovirus type 11 (ECHO 11); test: Anti-echoviral cell culture assay (XTT, EC50), ECHO 11; format: cell-based, echovirus 11 in MRC-5 cells
Method: Anti-Echoviral and Anti-Enteroviral Cell Culture Assays
Echovirus type 11 (ECHO 11) was purchased from ATCC (Rockville, Md.). Virus stocks were propagated and antiviral assays were performed in MRC-5 cells (ATCC). Cells were grown in minimal essential medium with 10% fetal bovine serum (Life Technologies, Gaithersburg, Md.). The ability of the compounds of this invention to protect cells against ECHO 11 infection was measured by the XTT dye reduction method (Weislow et al., J. Natl. Cancer Inst. (1989), vol. 81, 577-586). MRC-5 cells were infected with ECHO 11 at an m.o.i. of 0.003 or 0.004, respectively, or mock-infected with medium only. Infected or uninfected cells were added at 1×10^4 cells per well and incubated with appropriate concentrations of compound. Four days later, XTT/PMS was added to test plates, and the amount of formazan produced was quantified spectrophotometrically at 450/650 nm. The EC50 was calculated as the concentration of compound that increased the formazan production in compound-treated, virus-infected cells to 50% of that produced by compound-free, uninfected cells. The 50% cytotoxic dose (CC50) was calculated as the concentration of compound that decreased formazan production in compound-treated, uninfected cells to 50% of that produced in compound-free, uninfected cells. The therapeutic index (TI) was calculated by dividing the CC50 by the EC50. Activity of the compounds against enterovirus type 70 (EV 70) may be measured by the same assay as described above in this section. Enterovirus type 70 (EV 70) may be obtained from the American Type Culture Collection ATCC (Rockville, Md.).

[4] = system: HRV-14; test: Antirhinoviral H1-HeLa cell culture assay (XTT cell protection, EC50), HRV-14; format: cell-based, human rhinovirus (HRV) serotype-14 in H1-HeLa cells
Method in brief: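 H1-HeLa cells were infected with HRV-14 at m.o.i. 0.13, or mock-infected, and incubated with compound for two days. Cell protection was read by XTT/PMS formazan absorbance at 450/650 nm to give EC50. CC50 came from mock-infected cells, and TI = CC50/EC50.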

[5] = system: coxsackievirus B2 (CVB2); test: Anticoxsackieviral cell culture assay (EC50), CVB2; format: cell-based
[6] = system: strains of human rhinovirus (HRV); test: Antirhinoviral H1-HeLa cell culture assay (XTT cell protection, EC50), other HRV strains; format: cell-based, human rhinovirus in H1-HeLa cells
Method: Antirhinoviral H1-HeLa Cell Culture Assay:
In this cell protection assay, the ability of compounds to protect cells against HRV infection was measured by the XTT dye reduction method, which is described in Weislow et al., J. Natl. Cancer Inst. (1989), vol. 81, 577-586. H1-HeLa cells were infected with HRV-14 at a multiplicity of infection (m.o.i.) of 0.13 (virus particles/cell) or mock-infected with medium only. Infected or mock-infected cells were resuspended at 8×10^5 cells per mL, and incubated with appropriate concentrations of the compounds to be tested. Two days later, XTT/PMS was added to test plates and the amount of formazan produced was quantified spectrophotometrically at 450/650 nm. The EC50 value was calculated as the concentration of compound that increased the percentage of formazan production in compound-treated, virus-infected cells to 50% of that produced by compound-free, mock-infected cells. The 50% cytotoxic dose (CC50) was calculated as the concentration of compound that decreased the percentage of formazan produced in compound-treated, mock-infected cells to 50% of that produced by compound-free, mock-infected cells. The therapeutic index (TI) was calculated by dividing the CC50 value by the EC50 value.
All strains of human rhinovirus (HRV) for use in this assay were purchased from American Type Culture Collection (ATCC), except for HRV serotype-14 (produced from the infectious cDNA clone constructed by Dr. Robert Rueckert, Institute for Molecular Virology, University of Wisconsin, Madison, Wis.). HRV stocks were propagated and viral assays were performed in H1-HeLa cells (ATCC). Cells were grown in minimal essential medium with 10% fetal bovine serum, available from Life Technologies (Gaithersburg, Md.).

[7] = system: coxsackievirus B5 (CVB5); test: Anticoxsackieviral cell culture assay (EC50), CVB5; format: cell-based
[8] = system: Coxsackievirus type A-21 (CAV-21); test: Anticoxsackieviral cell culture assay (XTT, EC50), CAV-21; format: cell-based, coxsackievirus A-21 in H1-HeLa cells
Method: as §1, §2

[9] = system: echovirus 6 (ECHO-6); test: Anti-echoviral cell culture assay (EC50), ECHO-6; format: cell-based

Row | Structure (SMILES) | TI [1] | TI [2] | TI [4] | TI [5] | TI ([6]; HRV-1A) | TI ([6]; HRV-2) | TI ([6]; HRV-3) | TI ([6]; HRV-9) | TI ([6]; HRV-10) | TI ([6]; HRV-11) | TI ([6]; HRV-13) | TI ([6]; HRV-16) | TI ([6]; HRV-19) | TI ([6]; HRV-23) | TI ([6]; HRV-25) | TI ([6]; HRV-39) | TI ([6]; HRV-78) | TI ([6]; HRV-Hanks) | TI [7] | TI [8] | also measured
1 | CCOC(=O)/C=C/[C@H](C[C@@H]1CCNC1=O)NC(=O)[C@H](CC)n1cccc(NC(=O)c2cc(C)on2)c1=O [Compound 26, trans-(2′S,3″″S,4S)-4-(2′-{3″-[(5′″-Methylisoxazole-3′″-carbonyl)amino]-2″-oxo-2″H-pyridin-1″-yl}butyrylamino)-5-(2″″-oxopyrrolidin-3″″-yl)pent-2-enoic Acid Ethyl Ester] | >666 | >625 | >182 | >181 | >714 | >625 | >344 | >222 | >370 | >2500 | >172 | >200 | >153 | >250 | >98 | >212 | >175 | >185 | >555 | >82 | TI ([3]; ECHO-11): >277; TI ([6]; HRV-87): >476; TI [9]: >588
2 | C#CC[C@@H](C(=O)N[C@H](/C=C/C(=O)OCC)C[C@@H]1CCNC1=O)n1cccc(NC(=O)c2cc(C)on2)c1=O [Compound 31, trans-(2′S,3″″S,4S)-4-(2′-{3″-[(5′″-Methyl-isoxazole-3′″-carbonyl)amino]-2″-oxo-2″H-pyridin-1″-yl}pent-4′-ynoyl-amino)-5-(2″″-oxopyrrolidin-3″″-yl)pent-2-enoic Acid Ethyl Ester] | >833 | >416 | >454 | >175 | >277 | >769 | >476 | >227 | >208 | >2000 | >166 | >263 | >200 | >238 | >114 | >232 | >163 | >204 | >212 | >62 | TI ([3]; ECHO-11): >769; TI ([6]; HRV-87): >476; TI [9]: >476
3 | CCOC(=O)/C=C/[C@H](C[C@@H]1CCNC1=O)NC(=O)[C@H](Cc1ccc(F)c(F)c1)n1cccc(NC(=O)c2cc(C)on2)c1=O [Compound 33, trans-(2′S,3′″″S,4S)-4-(3′-(3″,4″-Difluorophenyl)-2′-{3′″-[(5″″-methylisoxazole-3″″-carbonyl)amino]-2′″-oxo-2′″H-pyridin-1′″-yl}propionylamino)-5-(2′″″-oxopyrrolidin-3′″″-yl)pent-2-enoic Acid Ethyl Ester] | >3333 | >3333 | >10000 | >666 | – | >3333 | >3333 | >666 | – | >3333 | >714 | >1666 | >2500 | >3333 | >357 | >2500 | >2000 | >2000 | >400 | >2500 | TI ([3]; ECHO-11): >625; TI ([6]; HRV-87): >2000; TI [9]: >666
4 | Cc1cc(C(=O)Nc2cccn([C@@H](Cc3ccc(F)c(F)c3)C(=O)N[C@H](/C=C/C(=O)OC(C)C)C[C@@H]3CCNC3=O)c2=O)no1 [Compound 48, trans-(2′S,3″″″S,4S)-4-[3′-(3″,4″-Difluorophenyl)-2′-(3′″-{[1″″-(5′″″-methylisoxazol-3′″″-yl)methanoyl]amino}-2″″-oxo-2″″H-pyridin-1″″-yl)propanoylamino]-5-(2″″″-oxopyrrolidin-3″″″-yl)pent-2-enoic Acid Isopropyl Ester] | >175 | >53 | >3333 | >62 | >75 | >208 | >333 | >91 | >117 | >3333 | >227 | >277 | >1111 | >1000 | >100 | >227 | >833 | >3333 | >56 | >8 | –
5 | C#CC[C@@H](C(=O)N[C@H](/C=C/C(=O)OC1CCC1)C[C@@H]1CCNC1=O)n1cccc(NC(=O)c2cc(C)on2)c1=O [Compound 53, trans-(2′S,3′″″S,4S)-4-[2′-(3″-{[1′″-(5″″-Methylisoxazol-3″″-yl)methanoyl]amino}-2′″-oxo-2′″H-pyridin-1′″-yl)pent-4″-ynoylamino]-5-(2′″″-oxopyrrolidin-3′″″-yl)pent-2-enoic Acid Cyclobutyl Ester] | >384 | >64 | >250 | >64 | >78 | >128 | >227 | >75 | >270 | >500 | >63 | >98 | >188 | >222 | >151 | >80 | >250 | >72 | >63 | >21 | –
6 | Cc1cc(CCCOc2c(C)cc(-c3noc(C(F)(F)F)n3)cc2C)on1 [Pleconaril, reference compound] | – | – | >1000 | – | – | – | – | – | – | – | – | – | – | – | – | – | – | – | – | >107 | TI ([3]; ECHO-11 (EV-11)): >62
